# RC index of single-base changes in HIV-1 Gag

The measurements come from Al-Mawsawi et al. 2014 (doi:10.1186/s12977-014-0124-6).

Protein: Gag of HIV-1 NL4-3, numbered from its first residue. Gag is numbered as the whole polyprotein.
Effects on overlapping genes or RNA elements are not listed.

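Random point mutant libraries of HIV-1 NL4-3, one for each of seven fragments, were passaged in CEM T lymphocytes. Sequencing gave the RC index: frequency after two rounds over frequency in the input plasmid.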

Values are the RC index; higher means better tolerated. The authors read about 0.1 or less as lethal, 0.1-0.2 as attenuated and 0.2 or more as tolerated.
Each entry names the wild-type residue, its position and the residue put in its place.
Base changes are numbered along pNL4-3.
An index over 1, which the authors read as above wild type, was rare (1.9% of all changes in the genome).
Since each clone held several changes (about five per kb), neutral changes can read low.

{"substitution": "M1T", "base": "T791C", "region": "MA", "replication capacity index": 0.0489}
{"substitution": "G2S", "base": "G793A", "region": "MA", "replication capacity index": 0.0419}
{"substitution": "A5P", "base": "G802C", "region": "MA", "replication capacity index": 0.171}
{"substitution": "S6T", "base": "T805A", "region": "MA", "replication capacity index": 0.0329}
{"substitution": "S6A", "base": "T805G", "region": "MA", "replication capacity index": 0.0420}
{"substitution": "L8F", "base": "A813T", "region": "MA", "replication capacity index": 0.0548}
{"substitution": "S9N", "base": "G815A", "region": "MA", "replication capacity index": 0.100}
{"substitution": "S9R", "base": "C816A", "region": "MA", "replication capacity index": 0.115}
{"substitution": "G10R", "base": "G817A", "region": "MA", "replication capacity index": 0.0896}
{"substitution": "G10E", "base": "G818A", "region": "MA", "replication capacity index": 0.0604}
{"substitution": "G10A", "base": "G818C", "region": "MA", "replication capacity index": 0.0339}
{"substitution": "G10V", "base": "G818T", "region": "MA", "replication capacity index": 0.101}
{"substitution": "E12Q", "base": "G823C", "region": "MA", "replication capacity index": 0.374}
{"substitution": "E12V", "base": "A824T", "region": "MA", "replication capacity index": 0.00929}
{"substitution": "E12D", "base": "A825T", "region": "MA", "replication capacity index": 0.0409}
{"substitution": "L13I", "base": "T826A", "region": "MA", "replication capacity index": 0.0366}
{"substitution": "L13F", "base": "A828T", "region": "MA", "replication capacity index": 0.0279}
{"substitution": "D14Y", "base": "G829T", "region": "MA", "replication capacity index": 0.162}
{"substitution": "D14V", "base": "A830T", "region": "MA", "replication capacity index": 0.0398}
{"substitution": "D14E", "base": "T831A", "region": "MA", "replication capacity index": 0.0476}
{"substitution": "K15R", "base": "A833G", "region": "MA", "replication capacity index": 0.0427}
{"substitution": "K15I", "base": "A833T", "region": "MA", "replication capacity index": 0.0318}
{"substitution": "K15N", "base": "A834C", "region": "MA", "replication capacity index": 0.0360}
{"substitution": "W16R", "base": "T835A", "region": "MA", "replication capacity index": 0.0337}
{"substitution": "W16S", "base": "G836C", "region": "MA", "replication capacity index": 0.0530}
{"substitution": "E17G", "base": "A839G", "region": "MA", "replication capacity index": 0.0579}
{"substitution": "K18E", "base": "A841G", "region": "MA", "replication capacity index": 0.0475}
{"substitution": "K18I", "base": "A842T", "region": "MA", "replication capacity index": 0.0386}
{"substitution": "K18N", "base": "A843T", "region": "MA", "replication capacity index": 0.0550}
{"substitution": "I19V", "base": "A844G", "region": "MA", "replication capacity index": 0.0299}
{"substitution": "I19F", "base": "A844T", "region": "MA", "replication capacity index": 0.0498}
{"substitution": "I19N", "base": "T845A", "region": "MA", "replication capacity index": 0.0463}
{"substitution": "I19T", "base": "T845C", "region": "MA", "replication capacity index": 0.0598}
{"substitution": "R20Q", "base": "G848A", "region": "MA", "replication capacity index": 0.0958}
{"substitution": "R20P", "base": "G848C", "region": "MA", "replication capacity index": 0.0160}
{"substitution": "R20L", "base": "G848T", "region": "MA", "replication capacity index": 0.0565}
{"substitution": "L21I", "base": "T850A", "region": "MA", "replication capacity index": 0.0353}
{"substitution": "L21F", "base": "A852T", "region": "MA", "replication capacity index": 0.0413}
{"substitution": "R22G", "base": "A853G", "region": "MA", "replication capacity index": 0.206}
{"substitution": "R22W", "base": "A853T", "region": "MA", "replication capacity index": 0.0534}
{"substitution": "R22S", "base": "G855C", "region": "MA", "replication capacity index": 0.198}
{"substitution": "P23T", "base": "C856A", "region": "MA", "replication capacity index": 0.0950}
{"substitution": "P23A", "base": "C856G", "region": "MA", "replication capacity index": 0.179}
{"substitution": "G24R", "base": "G859A", "region": "MA", "replication capacity index": 0.0890}
{"substitution": "G24E", "base": "G860A", "region": "MA", "replication capacity index": 0.151}
{"substitution": "G25R", "base": "G862A", "region": "MA", "replication capacity index": 0.136}
{"substitution": "G25E", "base": "G863A", "region": "MA", "replication capacity index": 0.776}
{"substitution": "K26E", "base": "A865G", "region": "MA", "replication capacity index": 0.143}
{"substitution": "K26T", "base": "A866C", "region": "MA", "replication capacity index": 0.174}
{"substitution": "K26M", "base": "A866T", "region": "MA", "replication capacity index": 0.0396}
{"substitution": "K27R", "base": "A869G", "region": "MA", "replication capacity index": 0.0487}
{"substitution": "K27I", "base": "A869T", "region": "MA", "replication capacity index": 0.0609}
{"substitution": "Q28K", "base": "C871A", "region": "MA", "replication capacity index": 0.324}
{"substitution": "Q28R", "base": "A872G", "region": "MA", "replication capacity index": 0.0563}